Compound potency records, mixed from different reports. Data source: NIAID ChemDB in PubChem.

Shared fields: tests in culture; measure: EC50

ECn is the concentration giving n% inhibition of infection, replication or growth.

| structure | organism | strain | cell line | method | value |
|---|---|---|---|---|---|
| N=C(N)c1ccc(CNCCCCNCc2ccc(C(=N)N)cc2)cc1 | Encephalitozoon cuniculi | - | - | - | 317 µM |
| CCOC(=O)c1ccc(OCCCOc2ccc(-c3snc(SC)c3C#N)cc2)cc1 | Encephalomyocarditis virus | - | HEP-2/L-929/VERO | plaque count | >2 µM |
| O=C1CCC(N2C(=O)c3ccccc3C2=O)C(=O)N1 | Encephalitozoon intestinalis | - | MRC-5 | - | >1 µg/mL |
| CCNC/C=C\CNC/C=C\CNC/C=C\CNCCCCNCC | Encephalitozoon cuniculi | - | - | - | 385 µM |
| CSc1nsc(-c2ccc(OCCCOc3ccc(C#N)cc3)cc2)c1C#N | Encephalomyocarditis virus | - | HEP-2/L-929/VERO | plaque count | >2 µM |
| N#Cc1c(-c2ccccc2)s[nH]c1=S | Encephalomyocarditis virus | Encephalomyocarditis virus | L929 | plaque count | >60 µM |
| CSc1nsc(-c2ccc(OCCCCOc3ccc(C#N)cc3)cc2)c1C#N | Encephalomyocarditis virus | - | HEP-2/L-929/VERO | plaque count | >2 µM |
| CSc1nsc(C)c1C#N | Encephalomyocarditis virus | Encephalomyocarditis virus | L929 | plaque count | >100 µM |
| CCNCCCCNCCCCNCCCCNCCCCNCCCCNC/C=C/CNCCCCNCCCCNCCCCNCCCCNCCCCNCC | Encephalitozoon cuniculi | - | - | - | 0.4 µM |
| CSc1nsc(-c2ccc(C)cc2)c1C#N | Encephalomyocarditis virus | Encephalomyocarditis virus | L929 | plaque count | 1 µM |
| CSc1nsc(-c2ccc(OCCCCOc3ccccc3)cc2)c1C#N | Encephalomyocarditis virus | - | HEP-2/L-929/VERO | plaque count | >20 µM |
| CSc1nsc(-c2cccs2)c1C#N | Encephalomyocarditis virus | Encephalomyocarditis virus | L929 | plaque count | >6 µM |
| CCNC/C=C\CNCCCCNCCCCNCCCCNCC | Encephalitozoon cuniculi | - | - | - | 137.5 µM |
| N#Cc1csnc1-c1ccccc1 | Encephalomyocarditis virus | Encephalomyocarditis virus | L929 | plaque count | >100 µM |
| N=C(N)c1ccc(CNCCCCCCNCc2ccc(C(=N)N)cc2)cc1 | Encephalitozoon cuniculi | - | - | - | 95 µM |

Repeating the first 2 entries:

{"structure": "N=C(N)c1ccc(CNCCCCNCc2ccc(C(=N)N)cc2)cc1", "organism": "Encephalitozoon cuniculi", "value": "317 µM"}
{"structure": "CCOC(=O)c1ccc(OCCCOc2ccc(-c3snc(SC)c3C#N)cc2)cc1", "organism": "Encephalomyocarditis virus", "cell line": "HEP-2/L-929/VERO", "method": "plaque count", "value": ">2 µM"}

Blank or dashed fields: not listed here. Lines come from different laboratories, so protocols vary.